Measured values from several laboratories, pooled; numbers as filed in NIAID ChemDB.

Common to all: growth or infection tests; organism: Herpes simplex virus 1; read by: cytopathic effect; measure: EC50

ECn is the concentration giving n% inhibition of infection, replication or growth.

compound,cell line,strain or isolate,value
CCCCCCC#Cc1cn(S(=O)(=O)c2ccc(C)cc2)c(=O)[nH]c1=O,HEL,KOS,>200 µM
CCN(CC)C(=S)Sc1ncnc(N2CC[N+]3(CC2)CC[N+]2(CCN(c4ncnc(SC(=S)N(CC)CC)c4[N+](=O)[O-])CC2)CC3)c1[N+](=O)[O-],GMK,,24.44 µg/mL
COC(=O)C(C)(C)NP(=O)(OC[C@H]1O[C@@H](n2cc(/C=C/Br)c(=O)[nH]c2=O)C[C@@H]1O)Oc1ccccc1,E6SM,KOS,1.92 µM
CC(O)CCCCCC(CCCCCCCCCCCCCC1CC(=O)OC[C@H]2O[C@@H](OC(CCCCCCCCCCCC(CCCCCC(C)O)O[C@@H]3O[C@H](CO)[C@@H](O)[C@H](O)[C@H]3O)CC(=O)OC[C@@H]3O[C@H](O1)[C@@H](O)[C@H](O)[C@H]3O)[C@H](O)[C@@H](O)[C@@H]2O)O[C@@H]1O[C@H](CO)[C@@H](O)[C@H](O)[C@H]1O,VERO,KOS,2.7 µg/mL
Nc1nc(=S)n([C@@H]2O[C@H](CO)[C@@H](O)[C@@H]2O)cc1/C=C/c1ccccc1,RPMI8226,A4-3 (TK-),>258.7 µM
CC1(CO)CCC(Cn2nnc3c(N)ncnc32)C1(C)C,E6SM,KOS,>100 µg/mL
N[C@@H]1[C@H](O)[C@@H](CO)O[C@H]1n1ccc(=O)[nH]c1=O,PRK,KOS,>200 µg/mL
Cc1nn2c(-c3cn(-c4ccccc4)nc3-c3ccccc3)nnc2s1,HEL,KOS,>16 µg/mL
Nc1ncnc2c1ncn2[C@H]1C[C@H](O)[C@@H](CO)O1,PRK,KOS,>200 µg/mL
Nc1nc2c(ncn2COCCO)c(=O)[nH]1,HEF,,0.1 µM
CC1(CO)CCC(Cn2ccc(=O)[nH]c2=O)C1(C)C,E6SM,KOS,>400 µg/mL
CCc1cn([C@H]2C[C@H](O)[C@@H](CO)O2)c(=O)[nH]c1=O,BHK-21,Isolate 229,1.37 µg/mL
Nc1ncnc2c1ncn2C[C@H](O)CO,PRK,KOS,>400 µg/mL
CCCCCC#Cc1cn(S(=O)(=O)c2ccc(C)cc2)c(=O)[nH]c1=O,HEL,KOS,>40 µM
O=c1[nH]c(=O)n(C2CC(CO)[C@H](O)C2)cc1I,PRK,B2006 (TK-),>400 µg/mL
Nc1nc2c(ncn2N2C[C@H](CO)[C@H]2CO)c(=O)[nH]1,VERO,,5.36 µg/mL
Nc1ncnc2c1ncn2C[C@H](O)CO,PRK,KOS,>400 µg/mL
Nc1nc(=S)n([C@@H]2O[C@H](CO)[C@@H](O)[C@@H]2O)cc1/C=C/Br,RPMI8226,KOS (TK+),30.5 µM
Nc1nccc2c1ncn2[C@@H]1C[C@H](CO)[C@@H](O)[C@H]1O,PRK,KOS,≥200 µg/mL
Nc1ncnc2c1ncn2[C@@H]1O[C@H](CO)[C@@H](O)[C@H]1N,PRK,KOS,≥40 µg/mL
CC(=O)c1c(O)c(C(=O)CC(C)C)c(O)c2c1OC(C(C)(C)O)C2,VERO,,44.6 µM
CCCCCCCC/C=C/CCCCCCCC(=O)O,HEL,HU-5,>100 µM
CC(O)c1cn([C@@H]2O[C@H](CO)[C@@H](O)[C@@H]2O)c(=S)nc1N,RPMI8226,A4-3 (TK-),>244.8 µM
Nc1ncnc2c1ncn2[C@@H]1C[C@H](CO)[C@@H](O)[C@@H]1O,HEP-2,Lederle chorioallantoic,9 µg/mL
CCCCCCCCC#Cc1cn(S(=O)(=O)c2ccc(C)cc2)c(=O)[nH]c1=O,HEL,KOS,>200 µM
Cc1cc([C@@H]2C[C@H](O)[C@@H](CO)O2)c(F)cc1F,E6SM,VMW 1837,>400 µg/mL
C=Cc1cn([C@@H]2O[C@H](CO)[C@@H](O)[C@@H]2O)c(=S)[nH]c1=O,RPMI8226,KOS (TK+),1.23 µM
O=c1[nH]c(=O)n(C2CC(CO)[C@@H](O)C2)cc1/C=C/Br,PRK,KOS,0.02 µg/mL
Nc1nc2c(ncn2[C@@H]2O[C@H](CO)[C@@H](O)[C@H]2N)c(=O)[nH]1,PRK,KOS,>200 µg/mL
OC[C@H]1O[C@H](c2cc(Br)c(F)cc2F)C[C@@H]1O,E6SM,F,>400 µg/mL
Nc1ncnc2c1ncn2[C@@H]1C=C(CO)[C@@H](O)[C@@H]1O,PRK,KOS,>400 µg/mL
Nc1ccn(C[C@@H](CO)OCP(=O)(O)O)c(=O)n1,HEL,HU-3,2.86 µM
Cc1cn([C@H]2C[C@H](O)[C@@H](CO)O2)c(=S)nc1N,RPMI8226,A4-3 (TK-),>300.8 µM
COC(=O)[C@H](C)NP(=O)(OC[C@H]1O[C@@H](n2cc(/C=C/Br)c(=O)[nH]c2=O)C[C@@H]1O)Oc1ccccc1,E6SM,KOS,0.384 µM
CCCc1cn([C@H]2C[C@H](O)[C@@H](CO)O2)c(=S)nc1N,RPMI8226,KOS (TK+),0.15 µM
Nc1ncnc2c1ncn2[C@@H]1C=C(CO)[C@@H](O)C1,PRK,KOS,100 µg/mL
Nc1nc(Cl)c2ncn(COCCO)c2n1,PRK,,2 µg/mL
S=c1[nH]n2c(-c3cn(-c4ccccc4)nc3-c3ccccc3)nnc2s1,HEL,KOS (TK-),>80 µg/mL
O=c1ccn([C@@H]2O[C@H](CO)[C@](O)(C(F)(F)F)[C@H]2O)c(=O)[nH]1,E6SM,KOS,200 µg/mL
O=c1[nH]c(=O)n([C@H]2C[C@@H](CO)[C@H](O)C2)cc1/C=C/Br,PRK,McIntyre,10 µg/mL
O=C1CSc2nnc(-c3cn(-c4ccccc4)nc3-c3ccccc3)n2N1,HEL,KOS,>16 µg/mL
Nc1nc2c(ncn2[C@@H]2C=C[C@H](CO)[C@@H](O)C2)c(=O)[nH]1,E6SM,F,0.002 µg/mL
[N-]=[N+]=N[C@@H]1[C@H](O)[C@@H](CO)O[C@H]1n1cnc2c(=O)[nH]c(N)nc21,PRK,KOS,>200 µg/mL
CC(=O)OCCOCn1cnc2c(Cl)nc(Cl)nc21,PRK,,2 µg/mL
Cc1nc(Cl)c([N+](=O)[O-])c(N2CC[N+]3(CC2)CC[N+]2(CCN(c4nc(C)nc(Cl)c4[N+](=O)[O-])CC2)CC3)n1,GMK,,2.02 µg/mL
O=c1[nH]c(=O)n(COCCO)cc1Cl,PRK,,>400 µg/mL
CC(=O)Nn1c(-c2cn(-c3ccccc3)nc2-c2ccccc2)n[nH]c1=S,HEL,KOS (TK-),>80 µg/mL
Nc1nc2c(ncn2COCCP(=O)(N2CCOCC2)N2CCOCC2)c(=O)[nH]1,VERO E6,L2,>500 µM
Nc1cc([C@H]2C[C@H](O)[C@@H](CO)O2)c(F)cc1F,E6SM,VMW 1837,>400 µg/mL
Nc1ncnc2c1ncn2C[C@@H](CO)OCP(=O)(O)O,ESM,KOS,0.2 µg/mL
CCCCCC#Cc1c[nH]c(=O)[nH]c1=O,HEL,KOS,>200 µM
[N-]=[N+]=N[C@H]1[C@H](O)[C@@H](CO)O[C@H]1n1cnc2c(N)ncnc21,PRK,KOS,>200 µg/mL
CCCCCCCc1cc2cnc(=O)[nH]c2o1,HEL,KOS,>200 µM
Nc1ncnc2c1ncn2C[C@@H](CO)OCP(=O)(O)O,PRK,B2006 (TK-),1 µg/mL
OC[C@H]1O[C@H](c2ccc(F)cc2F)C[C@@H]1O,E6SM,KOS/ACV-R,>400 µg/mL
Nc1ncnc2c1ncn2[C@@H]1O[C@H](CO)[C@](O)(C(F)(F)F)[C@H]1O,E6SM,KOS,20 µg/mL
O=c1[nH]c(=O)n([C@H]2CC[C@@H](CO)O2)cc1/C=C/Br,PRK,MacIntyre,0.009 µg/mL
[N-]=[N+]=N[C@H]1[C@@H](O)[C@H](n2cnc3c(N)ncnc32)O[C@@H]1CO,PRK,KOS,≥40 µg/mL
CC1(CO)CCC(Cn2cnc3c(=O)[nH]cnc32)C1(C)C,E6SM,TK-/TK+ (VMW 1837),>200 µg/mL
Cc1nc(N2CC[N+]3(CC2)CC[N+]2(CCNCC2)CC3)c([N+](=O)[O-])c(N2CC[N+]3(CC2)CC[N+]2(CCNCC2)CC3)n1,GMK,,1.48 µg/mL
O=c1[nH]cnc2c1ncn2COCCO,PRK,,>400 µg/mL
O=[N+]([O-])c1c(N2CC[N+]3(CC2)CC[N+]2(CCNCC2)CC3)ncnc1N1CC[N+]2(CC1)CC[N+]1(CCN(c3ncnc(N4CC[N+]5(CC4)CC[N+]4(CCNCC4)CC5)c3[N+](=O)[O-])CC1)CC2,GMK,,3.71 µg/mL
O=c1[nH]c(=O)n([C@@H]2C[C@H](CO)[C@@H](O)C2)cc1I,PRK,F,0.07 µg/mL
O=[N+]([O-])c1c(Cl)nc(C(F)(F)F)nc1N1CC[N+]2(CC1)CC[N+]1(CCN(c3nc(C(F)(F)F)nc(Cl)c3[N+](=O)[O-])CC1)CC2,GMK,,24.55 µg/mL
CN(C)c1ncnc2c1ncn2COCCO,PRK,,>400 µg/mL
C=Cc1cn([C@H]2C[C@H](O)[C@@H](CO)O2)c(=S)[nH]c1=O,RPMI8226,A4-3 (TK-),>290.3 µM

Repeating the final 4 entries:

compound,cell line,strain or isolate,value
O=c1[nH]c(=O)n([C@@H]2C[C@H](CO)[C@@H](O)C2)cc1I,PRK,F,0.07 µg/mL
O=[N+]([O-])c1c(Cl)nc(C(F)(F)F)nc1N1CC[N+]2(CC1)CC[N+]1(CCN(c3nc(C(F)(F)F)nc(Cl)c3[N+](=O)[O-])CC1)CC2,GMK,,24.55 µg/mL
CN(C)c1ncnc2c1ncn2COCCO,PRK,,>400 µg/mL
C=Cc1cn([C@H]2C[C@H](O)[C@@H](CO)O2)c(=S)[nH]c1=O,RPMI8226,A4-3 (TK-),>290.3 µM

Lines come from different laboratories, so protocols vary. An empty or dashed field is not shown.